This is an account of results in patent US20250171495A1, “MUTLI-TARGETED SERINE PROTEASE INHIBITORS FOR TREATMENT OF CANCER AND VIRAL INFECTION” (Washington University, priority 2023, published 2025).

pEC50: −log10 of the molar value.

The term pEC50 denotes the EC50 on a negative log10 scale, so that one unit is a factor of ten.

The test system of the experiment is VSV-MERS. As to the kind of experiment: Host cell entry assay, VSV-MERS chimera, Calu-3 cells. Conditions: read-out: VSV MERS Cell Entry EC50; human lung epithelial Calu-3 cells.
In the case of `CC(=O)NCC(=O)N[C@@H](CCC(N)=O)C(=O)N[C@@H](Cc1ccccc1)C(=O)N[C@@H](CCCNC(=N)N)C(=O)c1nc2ccccc2s1` [MM3122, N-[(S)-1-[N-(S)-1-[(1,3-benzothiazol-2-yl)carbonyl]-4-guanidinobutylcarbamoyl]-2-phenylethyl](S)-2-[(acetylaminomethyl)carbonylamino]glutaramide], the pEC50 is 9.06. Regarding `CCC(C)[C@H](NC(C)=O)C(=O)N[C@@H](CCC(N)=O)C(=O)N[C@@H](Cc1ccccc1)C(=O)N[C@@H](CCCNC(=N)N)C(=O)c1nc2ccccc2s1` (stereo partly drawn) [MM3116, N-[(S)-1-[N-(S)-1-[(1,3-benzothiazol-2-yl)carbonyl]-4-guanidinobutylcarbamoyl]-2-phenylethyl](S)-2-[(2S)-2-acetylamino-3-methylvalerylamino]glutaramide], the pEC50 was 8.64. Turning to `CC(=O)N1CCC[C@H]1C(=O)N[C@@H](CCC(N)=O)C(=O)N[C@@H](Cc1ccccc1)C(=O)N[C@@H](CCCNC(=N)N)C(=O)c1nc2ccccc2s1` [MM3123, N-[(S)-1-[N-(S)-1-[(1,3-benzothiazol-2-yl)carbonyl]-4-guanidinobutylcarbamoyl]-2-phenylethyl](S)-2-[(S)-1-acetyl-2-pyrrolidinylcarbonylamino] glutaramide], the pEC50 is 8.54. In the case of `CC(=O)N[C@H]1CC(=O)NCCCC[C@@H](C(=O)N[C@@H](CCCNC(=N)N)C(=O)c2nc3ccccc3s2)NC(=O)[C@H](CC(C)C)NC1=O` [VD2173, Ac-Cyclo(DLK)—R-ketobenzothiazole], the pEC50 was 6.56. Regarding `CC(=O)N[C@@H](CCC(N)=O)C(=O)N[C@@H](Cc1ccccc1)C(=O)N[C@@H](CCCNC(=N)N)C(=O)c1nc2ccccc2s1` [MM3144, N-[(S)-1-[N-(S)-1-[(1,3-benzothiazol-2-yl)carbonyl]-4-guanidinobutylcarbamoyl]-2-phenylethyl](S)-2-acetylaminoglutaramide], the pEC50 was 9.26.
